This note sets out measurements from ChEMBL document CHEMBL1148773 (J Med Chem, 2007).

Experiment [1] deals with Human immunodeficiency virus type 1 protease (Human immunodeficiency virus 1, UniProt Q72874, I84V). Put plainly: Inhibition of HIV1 protease I84V mutant.
For experiment [2], the target named is Human immunodeficiency virus type 1 protease (Human immunodeficiency virus 1, UniProt Q72874, V82A). Briefly: Inhibition of HIV1 protease V82A mutant.
The target in experiment [3] is Human immunodeficiency virus type 1 protease (Human immunodeficiency virus 1, UniProt Q72874, D30N). Put plainly: Inhibition of HIV1 protease D30N mutant.
In experiment [4] the target is Human immunodeficiency virus type 1 protease (Human immunodeficiency virus 1, UniProt Q72874, I50V). Put plainly: Inhibition of HIV1 protease I50V mutant.

By Ki is commonly meant the equilibrium dissociation constant of an inhibitor or competing ligand from its target.

In the case of `CC(C)CN(C[C@@H](O)[C@H](Cc1ccccc1)NC(=O)O[C@H]1CO[C@H]2OCC[C@H]21)S(=O)(=O)c1ccc2c(c1)OCO2`, the inhibition constant Ki in experiment [1] is 0.85 nM; in experiment [2], 0.8 nM; in experiment [3] it was 4.6 nM; in experiment [4], 2.1 nM.
